The values below are quoted from earlier work in PMC9738830.

pKd: −log10 of the molar value. Read-outs that look alike come from different tables or passages of the source.

Data set [1] addresses Amyloid β oligomers (Homo sapiens) (UniProt P05067).
Data set [2] shares this target. The source holds these as a separate data set.

As to PrP (from UniProt P04925), the pKd (as a rule, −log10 of the Kd, conventionally taken in molar units) in data set [1] is 7.77. PrPc23–111 23-111 (from UniProt P04925): the pKd in data set [2] is 7.77.
